Reference: article doi:10.1101/2025.11.04.686469, “Discovery of Host-Directed Small Molecules with Broad Anti-Leishmanial Efficacy” (bioRxiv, 2025)

Assays:
[1] = system: intracellular L. donovani amastigotes; assay: Luminescent-based evaluation of intracellular anti-leishmanial activity in THP-1 macrophages; format: cell-based, Leishmania donovani; conditions: for Selectivity 24h LC50 / Lum IC50: host-directed effect vs cytotoxicity; for Selectivity: 24h LC50 / Lum IC50 (Supplemental Table 2)
Description: Luminescent strains, L. donovani LV82 expressing firefly luciferase (a kind gift from Dr. Abhay Satoskar, Ohio State University) and L. mexicana (NR-51210, ATCC) expressing renilla luciferase were used to evaluate the effect of the compounds in intracellular and extracellular conditions. Wild-type L. donovani LV82 (ATCC) were used for Giemsa staining based experiments. All parasites were cultured at 25°C and 5% CO2 in M199 media (Corning) supplemented with 10% FBS, 1% penicillin/streptomycin, and hemin (0.01 mg/mL), and used in experiments up to passage 15.
THP-1 cells were seeded in a 96 well plate (25,000 cells/well) overnight then differentiated with 150 nM phorbol 12-myristate 13-acetate (PMA) over 72 hours (Supplemental Figure 1). […] Briefly, promastigotes of a known cell density were resuspended in RPMI media (with 10% FBS, 1% P/S and 0.05 mM β-mercaptoethanol) and incubated with adhered THP-1 cells over 18 hours. After infection, cells were washed three times with fresh media to remove extracellular promastigotes.
Infected macrophages were then treated with compounds solubilized in DMSO ranging from 0.1-10 μM in concentrations. After 72 hours of treatment, the viability of the amastigotes within macrophages was determined using Promega firefly luminescence assay (Cat E1500) or Pierce Renilla luciferase assay (Cat 16166) for L. donovani and L. mexicana strains, respectively. Briefly, media was removed, and cells were lysed with the assay lysis buffer. The luciferase substrate was then incubated with the lysed cells for 10 min at room temperature and luminescence of live Leishmania was measured in a white opaque 96 well plate using a Biotek plate reader.

[2] = system: intracellular L. donovani amastigotes; assay: Image-based (Giemsa staining) evaluation of intracellular anti-leishmanial activity in bone marrow derived macrophages; format: cell-based, Leishmania donovani; conditions: for Therapeutic Index LC50 / IC50: 72hr LC50 / Giemsa IC50, L. donovani; for L. donovani Therapeutic Index LC50 / IC50: Table 3
Description: Bone marrow derived macrophages (BMDMs) were isolated from BALB/c mice and cultured as previously described. […] Completely differentiated BMDMs are obtained after 7 days of culture with media change every 2 days. Harvested cells were seeded onto 10 mm glass cover slips at 5 x 10^5 cells/ well of a 24 well plate in DMEM media (without LCM) and allowed to adhere overnight. […] After infection, cells were washed three times with fresh media to remove extracellular promastigotes and treated with compounds for a 72-hour incubation. BMDM cells were then washed with phosphate buffered saline, fixed with ice-cold methanol, and stained with Giemsa (5% v/v in water). The cover slips with stained cells are mounted onto glass slides and imaged on EVOS XL (100X, Thermo Fisher Scientific). Leishmania amastigotes per 100 macrophages were determined in a blinded manner.

[3] = system: intracellular L. mexicana amastigotes; format: cell-based, Leishmania mexicana; conditions: 72hr LC50 / Giemsa IC50, L. mexicana
Description: Bone marrow derived macrophages (BMDMs) were isolated from BALB/c mice and cultured as previously described. Briefly, bone marrow was harvested from long bones of mice and the isolated cells were seeded at a concentration of 2 x 10^6 cells/mL in petri dishes with RPMI media supplemented with 10% FBS, 1% Penn-Strep and 10% L929 conditioned media (LCM). Completely differentiated BMDMs are obtained after 7 days of culture with media change every 2 days. Harvested cells were seeded onto 10 mm glass cover slips at 5 x 10^5 cells/ well of a 24 well plate in DMEM media (without LCM) and allowed to adhere overnight. BMDM cells are then infected overnight with LV82 L. donovani or L. mexicana (NR-51210) at a multiplicity of infection of 10. After infection, cells were washed three times with fresh media to remove extracellular promastigotes and treated with compounds for a 72-hour incubation. BMDM cells were then washed with phosphate buffered saline, fixed with ice-cold methanol, and stained with Giemsa (5% v/v in water). The cover slips with stained cells are mounted onto glass slides and imaged on EVOS XL (100X, Thermo Fisher Scientific). Leishmania amastigotes per 100 macrophages were determined in a blinded manner.

| SMILES | Selectivity [1] | other results |
| --- | --- | --- |
| Nc1ccc(CNC2CCN(c3ccc(-n4nc(C(F)(F)F)cc4-c4ccc(-c5ccc(C(F)(F)F)cc5)cc4)cc3)C2)cc1 (centres unmarked) [Compound 23] | – | Selectivity 24h LC50 / Lum IC50 [1]: 14.8; Therapeutic Index LC50 / IC50 [2]: 8 |
| FC(F)(F)c1ccc(-c2ccc(-c3cc(C(F)(F)F)nn3-c3ccc(NC4CCNC4)cc3)cc2)cc1 (centres unmarked) [Compound 25] | – | Selectivity 24h LC50 / Lum IC50 [1]: 43.8; Therapeutic Index LC50 / IC50 [2]: 2 |
| CC(C)(C)C#Cc1ccc(-c2cc(C(F)(F)F)nn2-c2ccc(N3CCNCC3)cc2)cc1.Cl [Compound 44] | – | Selectivity 24h LC50 / Lum IC50 [1]: 8.1; Therapeutic Index LC50 / IC50 [2]: 14 |
| NCC(=O)Nc1ccc(-n2cc(C(F)(F)F)nc2-c2ccc(-c3ccccc3)cc2)cc1 [Compound 50] | – | Selectivity 24h LC50 / Lum IC50 [1]: 16.0; Therapeutic Index LC50 / IC50 [2]: 5 |
| N#Cc1cccc(CN2CCC(Nc3ccc(-n4nc(C(F)(F)F)cc4-c4ccc(-c5ccc(C(F)(F)F)cc5)cc4)cc3)C2)c1 (centres unmarked) [Compound 53] | – | L. mexicana Therapeutic Index LC50 / IC50 [3]: >428; L. donovani Therapeutic Index LC50 / IC50 [2]: >273 |
| O=C(Nc1ccc(-n2cc(C(F)(F)F)nc2-c2ccc(-c3ccccc3)cc2)cc1)C1CCN(Cc2ccccc2)C1 (centres unmarked) [Compound 86] | – | Selectivity 24h LC50 / Lum IC50 [1]: 16.0; Therapeutic Index LC50 / IC50 [2]: 14 |
| Oc1ccccc1CN1CCC(Nc2ccc(-n3nc(C(F)(F)F)cc3-c3ccc(-c4ccc(C(F)(F)F)cc4)cc3)cc2)C1 (centres unmarked) [Compound 91] | – | Selectivity 24h LC50 / Lum IC50 [1]: >36.1; Therapeutic Index LC50 / IC50 [2]: 22 |
| CC(C)(C)OC(=O)NC1CCN(c2ccc(-n3nncc3-c3ccc(C(F)(F)F)cc3)cc2)C1 (centres unmarked) [Compound 133] | – | Selectivity 24h LC50 / Lum IC50 [1]: 32.5; Therapeutic Index LC50 / IC50 [2]: 20 |
| O=C(CNCc1cccc(F)c1)Nc1ccc(-n2cc(C(F)(F)F)nc2-c2ccc(-c3ccc(C(F)(F)F)cc3)cc2)cc1 [Compound 197] | – | L. mexicana Therapeutic Index LC50 / IC50 [3]: >176; L. donovani Therapeutic Index LC50 / IC50 [2]: >273 |
| Oc1ccc(CNC2CCN(c3ccc(-n4nc(C(F)(F)F)cc4C4CCCCC4)cc3)CC2)cc1 [Compound 319] | – | Selectivity 24h LC50 / Lum IC50 [1]: 8.1; Therapeutic Index LC50 / IC50 [2]: 2 |
| N#Cc1ccc(CNCC(=O)Nc2ccc(-n3nc(C(F)(F)F)cc3C3CCCCC3)cc2)cc1 [Compound 354] | – | L. mexicana Therapeutic Index LC50 / IC50 [3]: 6; L. donovani Therapeutic Index LC50 / IC50 [2]: 51 |
| Oc1ccc(-n2nc(C(F)(F)F)cc2C2CCCCC2)cc1 [Compound 366] | < 3.3 | – |
| Oc1ccc(CN2CCC(Nc3ccc(-n4nc(C(F)(F)F)cc4C4CCCCC4)cc3)C2)cc1 (centres unmarked) [Compound 368] | 7.6 | – |
| FC(F)(F)c1cc(C2CCCCC2)n(-c2ccc(OC3CCNCC3)cc2)n1 [Compound 370] | 7.5 | – |
| FC(F)(F)c1cc(C2CCCCC2)n(-c2ccc(OC3CCN(Cc4ccccc4)CC3)cc2)n1 [Compound 371] | > 5.6 | – |
| N#Cc1ccc(CN2CCC(Oc3ccc(-n4nc(C(F)(F)F)cc4C4CCCCC4)cc3)CC2)cc1 [Compound 373] | > 7.2 | – |
| Oc1ccc(CN2CCC(Oc3ccc(-n4nc(C(F)(F)F)cc4C4CCCCC4)cc3)CC2)cc1 [Compound 374] | 2.6 | – |
| FC(F)(F)c1cc(C2CCCCC2)n(-c2ccc(OC3CCNC3)cc2)n1 (centres unmarked) [Compound 375] | 1.9 | – |
| Oc1ccc(CN2CCC(Oc3ccc(-n4nc(C(F)(F)F)cc4C4CCCCC4)cc3)C2)cc1 (centres unmarked) [Compound 377] | 1.8 | – |
| FC(F)(F)c1cc(C2CCCCC2)n(-c2ccc(NC3CCN(Cc4ccccc4)CC3)cc2)n1 [Compound 381] | 2.0 | – |
| Oc1ccc(CN2CCC(Nc3ccc(-n4nc(C(F)(F)F)cc4C4CCCCC4)cc3)CC2)cc1 [Compound 392] | 5.5 | – |
| FC(F)(F)c1cc(C2CCCCC2)n(-c2ccc(NC3CNC3)cc2)n1 [Compound 394] | 5.6 | – |

| SMILES | Selectivity [1] | other results |
| --- | --- | --- |
| FC(F)(F)c1cc(C2CCCCC2)n(-c2ccc(NC3CN(Cc4ccccc4)C3)cc2)n1 [Compound 395] | 4.9 | – |
| Fc1cccc(CN2CC(Nc3ccc(-n4nc(C(F)(F)F)cc4C4CCCCC4)cc3)C2)c1 [Compound 396] | 3.8 | – |
| N#Cc1ccc(CN2CC(Nc3ccc(-n4nc(C(F)(F)F)cc4C4CCCCC4)cc3)C2)cc1 [Compound 397] | 3.4 | – |
| FC(F)(F)c1ccc(-c2nc(C(F)(F)F)cn2-c2ccc(NC3CCNCC3)cc2)cc1 [Compound 408] | – | Selectivity 24h LC50 / Lum IC50 [1]: 17.0; Therapeutic Index LC50 / IC50 [2]: 10 |
| NCC(=O)Nc1ccc(-n2cc(C(F)(F)F)nc2-c2ccc(C(F)(F)F)cc2)cc1 [Compound 409] | 4.0 | – |
| NCCN1CCC(Oc2ccc(-n3nc(C(F)(F)F)cc3C3CCCCC3)cc2)CC1 [Compound 416] | 14.2 | – |
| CC(=O)NCCN1CCC(Oc2ccc(-n3nc(C(F)(F)F)cc3C3CCCCC3)cc2)CC1 [Compound 417] | 8.1 | – |
| NCCNC1CCN(c2ccc(-n3nc(C(F)(F)F)cc3C3CCCCC3)cc2)CC1 [Compound 418] | 4.2 | – |
| CC(=O)NCCNC1CCN(c2ccc(-n3nc(C(F)(F)F)cc3C3CCCCC3)cc2)CC1 [Compound 419] | 7.9 | – |
| NCCCNC1CCN(c2ccc(-n3nc(C(F)(F)F)cc3C3CCCCC3)cc2)CC1 [Compound 420] | 6.7 | – |
| CC(=O)NCCCNC1CCN(c2ccc(-n3nc(C(F)(F)F)cc3C3CCCCC3)cc2)CC1 [Compound 421] | 12.5 | – |
| Cl.Cl.NCCCCCN1CCC(Oc2ccc(-n3nc(C(F)(F)F)cc3C3CCCCC3)cc2)CC1 [Compound 422] | 2.4 | – |
| Cl.Cl.NCCOCCN1CCC(Oc2ccc(-n3nc(C(F)(F)F)cc3C3CCCCC3)cc2)CC1 [Compound 423] | 0.6 | – |
| Cl.Cl.NCCCCN1CCC(Oc2ccc(-n3nc(C(F)(F)F)cc3C3CCCCC3)cc2)CC1 [Compound 424] | 2.7 | – |
| Cl.Cl.NCCCN1CCC(Oc2ccc(-n3nc(C(F)(F)F)cc3C3CCCCC3)cc2)CC1 [Compound 425] | 2.5 | – |
| CC(=O)NCCOCCN1CCC(Oc2ccc(-n3nc(C(F)(F)F)cc3C3CCCCC3)cc2)CC1 [Compound 427] | 4.8 | – |
| CC(=O)NCCCN1CCC(Oc2ccc(-n3nc(C(F)(F)F)cc3C3CCCCC3)cc2)CC1 [Compound 428] | 1.3 | – |
| Cl.Cl.NCCCOc1ccc(CN2CCC(Oc3ccc(-n4nc(C(F)(F)F)cc4C4CCCCC4)cc3)CC2)cc1 [Compound 429] | 5.1 | – |
| CC(=O)NCCCOc1ccc(CN2CCC(Oc3ccc(-n4nc(C(F)(F)F)cc4C4CCCCC4)cc3)CC2)cc1 [Compound 430] | < 1.6 | – |
| CC(=O)NCCCCCN1CCC(Oc2ccc(-n3nc(C(F)(F)F)cc3C3CCCCC3)cc2)CC1 [Compound 431] | 4.7 | – |
| Cl.Cl.NCCCCCOc1ccc(CN2CCC(Oc3ccc(-n4nc(C(F)(F)F)cc4C4CCCCC4)cc3)CC2)cc1 [Compound 432] | 2.0 | – |
| Cl.FC(F)(F)c1ccc(-c2cnnn2-c2ccc(NC3CCNCC3)cc2)cc1 [Compound 434] | < 2.5 | – |
